# Measurements published in patent US20250115620A1, “BRIDGED TRICYCLIC CARBAMOYLPYRIDONE COMPOUNDS AND USES THEREOF” (Gilead Sciences, Inc., priority 2022, published 2025).
# System: pLAI reporter virus
# Assay type: cell-based, HIV
# Conditions: EC50 (50% HS)/EC50 (CCM)
smiles,measurement,value
"C[C@H]1CC[C@]2(CO2)[C@H]2CN1C(=O)c1c(O)c(=O)c(C(=O)NCc3c(F)cc(F)cc3F)cn12 [Example 165, (2R,3′S,7′R)-12′-hydroxy-3′-methyl-1′,11′-dioxo-N-(2,4,6-trifluorobenzyl)-1′,4′,5′,11′-tetrahydro-3′H,7′H-spiro[oxirane-2,6′-[2,7]methanopyrido[1,2-a][1,4]diazonine]-10′-carboxamide]",RLUC 50% HS Shift,19×
"C[C@H]1CC[C@@]2(CO2)[C@H]2CN1C(=O)c1c(O)c(=O)c(C(=O)NCc3c(F)cc(F)cc3F)cn12 [Example 166, (2S,3′S,7′R)-12′-hydroxy-3′-methyl-1′,11′-dioxo-N-(2,4,6-trifluorobenzyl)-1′,4′,5′,11′-tetrahydro-3′H,7′H-spiro[oxirane-2,6′-[2,7]methanopyrido[1,2-a][1,4]diazonine]-10′-carboxamide]",RLUC 50% HS Shift,7×
"COC[C@H]1CO[C@]2(CC[C@H](C)N3C[C@H]2n2cc(C(=O)NCc4c(F)cc(F)cc4F)c(=O)c(O)c2C3=O)O1 [Example 167, (2R,3′S,4S,7′R)-12′-hydroxy-4-(methoxymethyl)-3′-methyl-1′,11′-dioxo-N-(2,4,6-trifluorobenzyl)-1′,4′,5′,11′-tetrahydro-3′H,7′H-spiro[[1,3]dioxolane-2,6′-[2,7]methanopyrido[1,2-a][1,4]diazonine]-10′-carboxamide]",RLUC 50% HS Shift,15×
"O=C(NCc1c(F)cc(F)cc1F)c1cn2c(c(O)c1=O)C(=O)N1CCCC[C@H]2C1 [Reference Compound A, reference compound]",RLUC 50% HS Shift,6×
"O=C(NCc1ccc(F)cc1F)c1cn2c(c(O)c1=O)C(=O)N1CCCC[C@H]2C1 [Reference Compound B, reference compound]",RLUC 50% HS Shift,4×
"O=C(NCc1ccc(F)cc1F)c1cn2c(c(O)c1=O)C(=O)N1CCCC3(CC3)[C@H]2C1 [Reference Compound C, reference compound]",RLUC 50% HS Shift,8×
"C[C@H]1CCC[C@H]2CN1C(=O)c1c(O)c(=O)c(C(=O)NCc3ccc(F)cc3F)cn12 [Reference Compound D, reference compound]",RLUC 50% HS Shift,34×
